Test results published in ChEMBL document CHEMBL1155806, “Inorganic polyhedral metallacarborane inhibitors of HIV protease: a new approach to overcoming antiviral resistance” (J Med Chem, 2008).

Key:
[1] = Ratio of Ki for HIV1 recombinant protease L10I/L24I/L33F/M46L/[…]/L63P/A71V/V82A/I84V mutant to Ki for wild-type HIV1 BH10 protease expressed in Escherichia coli; set-up: species or system Human immunodeficiency virus 1
[2] = molecular target: Human immunodeficiency virus type 1 protease (Human immunodeficiency virus 1, UniProt Q72874, I47A/V32I); test: Inhibition of HIV1 recombinant protease V32I/I47A mutant expressed in Escherichia coli by spectrophotometric assay
Summary of the method: (§1)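 Recombinant PR refolded from inclusion bodies and purified. 8-10 pmol enzyme in 1 mL 0.1 M sodium acetate pH 4.7, 0.3 M NaCl, 4 mM EDTA. Ki obtained by fitting the Williams–Morrison competitive inhibition equation.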

[3] = molecular target: Human immunodeficiency virus type 1 protease (Human immunodeficiency virus 1, UniProt Q72874, D30N/N88D); test: Inhibition of HIV1 recombinant protease D30N/N88D mutant expressed in Escherichia coli by spectrophotometric assay; summary of the method: as §1
[4] = molecular target: Human immunodeficiency virus type 1 protease (Human immunodeficiency virus 1, UniProt Q72874, A71V/E35D/G73S/I15V/I62V/L10I/L63P/L90M/N37S/R41K); test: Inhibition of HIV1 recombinant protease L10I/I15V/E35D/N37S/R41K/I62V/L63P/A71V/G73S/L90M mutant expressed in Escherichia coli by spectrophotometric assay
[5] = molecular target: Human immunodeficiency virus type 1 protease (Human immunodeficiency virus 1, UniProt Q72874, A71V/I84V/V82T); test: Inhibition of HIV1 recombinant protease A71V/V82T/I84V mutant expressed in Escherichia coli by spectrophotometric assay; summary of the method: as §1
[6] = molecular target: Human immunodeficiency virus type 1 protease (Human immunodeficiency virus 1, UniProt Q72874, A71V/I54V/I84V/L10I/L24I/L33F/L63P/M46L/V82A); test: Inhibition of HIV1 recombinant protease L10I/L24I/L33F/M46L/I54V/L63P/A71V/V82A/I84V mutant expressed in Escherichia coli by spectrophotometric assay; summary of the method: as §1
[7] = molecular target: Human immunodeficiency virus type 1 protease (Human immunodeficiency virus 1, UniProt Q72874, A71V/E35D/F53L/H69K/I54V/I84V/I93L/K20R/L10F/L19I/L33F/L63P/L89M/L90M/M36I/R41K/T74P); test: Inhibition of HIV1 recombinant protease L10F/L19I/K20R/L33F/E35D/M36I/R41K/F53L/I54V/L63P/H69K/A71V/T74P/I84V/L89M/L90M/I93L mutant expressed in Escherichia coli by spectrophotometric assay; summary of the method: as §1
[8] = molecular target: Human immunodeficiency virus type 1 protease (Human immunodeficiency virus 1, UniProt Q72874, A71V/I84V/M46I/V82T); test: Inhibition of HIV1 recombinant protease M46I/A71V/V82T/I84V mutant expressed in Escherichia coli by spectrophotometric assay; summary of the method: as §1

## Cc1cccc(C)c1OCC(=O)N[C@@H](Cc1ccccc1)[C@@H](O)C[C@H](Cc1ccccc1)NC(=O)[C@H](C(C)C)N1CCCNC1=O [LOPINAVIR]
[1]
  Ki ratio: 24
[2]
  Ki: 2400 pM
[3]
  Ki: 26 pM
[4]
  Ki: 29 pM
[5]
  Ki: 60 pM
[6]
  Ki: 440 pM
[7]
  Ki: 500 pM
[8]
  Ki: 29 pM
